PubChem BioAssay AID504761, Drosophila RNAi Screening Center | 2011
The deposit covers about 22,000 reagents; shown is an unselected part of those with a known target gene and a result. In the full data, 116 (0.52%) got an active call. 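Calls depend on retest data that are not deposited; infection was ranked per plate without normalising between plates; the unit of the infection score is not given.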 Raw values are not corrected between plates. A number with no mark means an inactive call. The numbers tell different reagents against one gene apart. Names joined by + are all predicted targets of the reagent. Reagent sequences are not shown. Not given: the amount of reagent, the time to read-out.

Assay: 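Fly genes whose silencing reduces dengue virus type 2 infection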 (primary screen)
System: D.Mel-2 cells from Drosophila
Reagents: long dsRNA against Drosophila genes
Conditions: infection with dengue virus type 2; dose and infection time not stated
Detection: 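Cells stained for dengue envelope protein and imaged; percent of infected cells per well on duplicate plates, ranked by infection, with stained nuclei counted for cell number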
Direction: infection score: higher = more virus-infected cells; cell count: higher = more cells in the well
Call rule: 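Low infection ranks in the two replicates (chance level up to 0.065) followed by a retest with a 1.5-fold or larger significant decrease, p below 0.05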
Meaning of the calls: active = confirmed: knock-down lowers infection; inactive = not picked or not confirmed

infection score, replicate 1	infection score, replicate 2	cell count, replicate 1	cell count, replicate 2	target	reagent no.
3.52	1.52	6363	6780	CG32313	1
0.58	5.35	6749	6957	CG15221	1
3.72	7.76	5778	5667	dgt5	1
16.3	15.8	4871	4592	dgt5	2
3.62	7.27	6279	7129	Grip	1
2.57	3.4	5609	6092	Grip	2
16.8	20	6187	4112	Picot	1
14.5	1.74	5865	6269	Picot	2
3.64	4.47	6290	6084	CG7408	1
39.2	3.73	4705	5817	CG32820 + CG17450 + CG32819	1
0.35	13.9	6012	6692	CG32820 + CG17450 + CG32819	2
3.24	7.66	6998	6290	CG32820 + CG17450 + CG32819	3
4.31	3.24	6656	6635	Pex1	1
11.5	2.25	6336	6741	CG31827 + CG18478	1
0.75	1.65	6303	5685	CG6244	1
5.21	6.8	5952	6586	O-fut1	1
4.89	1.33	5812	5705	O-fut1	2
1.72	0.23	6119	5731	CG31082 (retired record)	1
14.8	12.6	2898	4902	CG31082 (retired record)	2
8.61	20.7	7070	4555	CG15185	1
5.25	10.4	6455	6413	CG12111	1
1.94	0.61	5993	6345	CG12111	2
0.98	2.98	6922	6903	Jhbp2	1
16	23.5	5110	5004	sle	1
11.1	10.9	6031	6443	COX7A	1
3.71	2.22	5930	6438	CG4949	1
2.25	7.35	6312	7003	CG12641 (retired record)	1
3.87	4.31	6050	6364	CG32374	1
5.23	10.4	2942	2982	RnrL	1
3.29	1	6436	5993	cic	1
2.06	2.19	5679	5623	cic	2
0.8	8.12	7375	6908	cic	3
3.19	8.26	5423	5509	cic	4
1.63	3.69	6004	6665	cic	5
9.77	14.4	6080	5061	cic	6
3.03	1.52	6003	6731	fest	1
13.2	25.5	6134	4205	fest	2
8.22	0.83	6341	6499	CG9733	1
7.17	1.36	5591	7044	TTLL3B	1
2.38	0.35	5972	6218	CG13071	1
1.33		6555		St3	1
1.48	2.16	6130	5556	DIP-theta	1
11.2	2.15	4418	6620	DIP-theta	2
8.84	2.69	6406	6658	CG3652	1
3.06	26	6498	5987	CG14418	1
5.78	12.8	6804	6504	EloA	1
1.4	3.03	6589	6229	EloA	2
1.13 (active)	0.55	6711	6945	CG14667	1
	6.25	376	2112	CG14667	2
2.03	4.85	6601	6344	baz	1
7.94	4.96	6283	6386	baz	2
2.76	3.92	6485	6630	LManIV	1
12.4	7.39	5730	7172	LManIV	2
4.1	1.55	6419	515	Spn43Ad	1
8.4	0.83	6301	6486	pkm	1
21	17.7	3833	5011	pkm	2
16.7	26	5640	4757	CG8152	1
0.6	1.06	6183	6414	Pepck1	1
2.08	7.75	5875	5732	Pepck1	2

Just “cell count, replicate 2”, for 6 of the entries above:
cic #5: 6665
cic #6: 5061
fest #1: 6731
fest #2: 4205
CG9733: 6499
TTLL3B: 7044
